Results deposited as PubChem BioAssay AID624099 (ICCB-Longwood, 2012).
Assay: 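Host factors E2 relies on to silence an HPV18 LCR reporter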 (primary screen). Cell system: human C33A cervical carcinoma cells (HPV-negative) stably expressing BPV1 E2 and an HPV18 LCR luciferase reporter. Knock-down reagent: siRNA pool against human genes, 40 nM. Time to read-out: 72 h. Measured: 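HPV18 LCR reporter light per well, converted to plate-wise z-scores that exclude control wells, and averaged over triplicate plates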. Direction: mean z-score and z-score: higher = stronger reporter signal, weaker E2 silencing. Hit rule: 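Mean z ≥ 2 together with z ≥ 2 in two or more of the three replicates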.
The whole screen tested about 21,000 reagents; shown is a part drawn at random. In the full data, 497 (2.4%) are marked active. 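Higher z means weaker E2 silencing; only reporter increases were scored, and knock-downs that hurt cell survival may mask genuine repressor factors.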

no.	target gene	mean z-score	z-score, replicate A	z-score, replicate B	z-score, replicate C	Call
1	BIRC7	-0.95	-1.22	-0.69	-0.92	inactive
2	C3orf52	-0.49	-0.45	-0.86	-0.17	inactive
3	TNFRSF11A	0	0.13	-0.05	-0.09	inactive
4	NOMO3	0.25	0.28	0.38	0.08	inactive
5	PACSIN2	-0.96	-0.93	-0.87	-1.08	inactive
6	GSX2	0.47	0.49	1.02	-0.09	inactive
7	SCAF11	0.98	0.94	1.11	0.87	inactive
8	CES3	-0.58	-0.4	-0.53	-0.82	inactive
9	HSD3B7	-0.41	-0.33	-0.58	-0.31	inactive
10	OAS1	0.5	0.37	0.68	0.46	inactive
11	SLCO1C1	-0.01	0.18	-0.07	-0.12	inactive
12	RBMS3	0.69	0.86	0.64	0.58	inactive
13	RAD23B	-1.99	-2	-2.07	-1.9	inactive
14	LY75	0.72	0.99	0.74	0.44	inactive
15	SLC39A8	0.44	0.76	0.22	0.34	inactive
16	BEST2	-0.41	-0.33	-0.45	-0.46	inactive
17	LOC286177	0.14	0.12	0.03	0.27	inactive
18	DZIP3	-0.78	-1.36	-0.99	0.02	inactive
19	ZNF761	0.3	-0.17	0.36	0.7	inactive
20	ZFP41	-0.43	-0.35	-0.56	-0.39	inactive
21	LSM7	-1.1	-0.66	-1.13	-1.52	inactive
22	MPEG1	0.18	0.09	0.31	0.14	inactive
23	GDF1	-0.13	-0.18	-0.23	0.03	inactive
24	DUSP3	0.71	0.79	0.64	0.69	inactive
25	ANXA8L1	-1.32	-1.14	-1.3	-1.51	inactive
26	BORCS5	-1.2	-1.29	-1.1	-1.2	inactive
27	LINC01801	-0.8	-0.9	-0.61	-0.88	inactive
28	VEGFB	-0.09	-0.19	-0.16	0.08	inactive
29	CARD14	-0.73	-0.39	-1.02	-0.78	inactive
30	SERPINA7	-0.34	-0.18	-0.03	-0.81	inactive
31	ERVV-1	-2.36	-2.71	-2.16	-2.21	inactive
32	GRAP2	-0.14	-0.08	-0.08	-0.26	inactive
33	ARHGAP27P1	0.3	0.52	0.51	-0.14	inactive
34	DRD3	0.06	-0.09	0.16	0.12	inactive
35	ITGAM	-0.68	-0.76	-0.63	-0.65	inactive
36	AMACR	0.31	0.26	0.45	0.21	inactive
37	HTN1	0.92	1.02	0.56	1.19	inactive
38	SPON2	0.14	0	0.42	0.01	inactive
39	PXMP2	-0.99	-1	-0.89	-1.09	inactive

2 entries from above in another layout:
{"target gene": "TNFRSF11A", "mean z-score": 0, "z-score, replicate A": 0.13, "z-score, replicate B": -0.05, "z-score, replicate C": -0.09, "Call": "inactive"}
{"target gene": "NOMO3", "mean z-score": 0.25, "z-score, replicate A": 0.28, "z-score, replicate B": 0.38, "z-score, replicate C": 0.08, "Call": "inactive"}
